Results deposited as PubChem BioAssay AID624099 (ICCB-Longwood, 2012)

Aim: 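Human genes that papillomavirus E2 requires to repress the HPV18 LCR promoter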 (primary screen)
Cells: human C33A cervical carcinoma cells (HPV-negative) stably expressing BPV1 E2 and an HPV18 LCR luciferase reporter
Reagent: siRNA pool against human genes, 40 nM
Time to read-out: 72 h
Measurement: 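HPV18 LCR reporter light per well, converted to plate-wise z-scores that exclude control wells, and averaged over triplicate plates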
Direction: mean z-score and z-score: higher = stronger reporter signal, weaker E2 silencing
Call rule: 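Mean z ≥ 2 together with z ≥ 2 in two or more of the three replicates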
The whole screen tested about 21,000 reagents; below is a part drawn at random. 497 of them (2.4%) count as active. 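Higher z means weaker E2 silencing; only reporter increases were scored, and knock-downs that hurt cell survival may mask genuine repressor factors.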 A number with no mark means an inactive call. No sequences are given here.

| Target gene | mean z-score | z-score, replicate A | z-score, replicate B | z-score, replicate C |
| --- | --- | --- | --- | --- |
| TBC1D4 | 0.84 | 0.91 | 0.8 | 0.81 |
| IVL | 1.2 | 1.08 | 1.22 | 1.3 |
| PRR11 | -1.17 | -0.96 | -1.29 | -1.26 |
| MORF4 | 1.07 | 0.94 | 1.31 | 0.96 |
| RAB12 | -1.29 | -1.96 | -1.11 | -0.82 |
| LINC00342 | 3.07 (active) | 4.01 | 2.47 | 2.72 |
| SMARCD3 | -0.58 | -0.79 | -0.37 | -0.58 |
| SLC33A2 | 2.62 (active) | 2.63 | 2.77 | 2.45 |
| CPED1 | 0.79 | 0.96 | 0.86 | 0.56 |
| CD27 | -0.12 | -0.05 | -0.13 | -0.18 |
| RLN3 | 1.11 | 0.91 | 1.4 | 1.03 |
| TAFA2 | -0.28 | -0.19 | -0.19 | -0.45 |
| SEPTIN7 | -0.04 | -0.03 | -0.05 | -0.04 |
| CORIN | 0.91 | 1.21 | 1.19 | 0.34 |
| MAP7D1 | 0.69 | 0.36 | 0.68 | 1.02 |
| LOC401500 (retired record) | -0.37 | -0.21 | -0.64 | -0.25 |
| LZTS2 | -0.07 | -0.56 | 0.37 | -0.01 |
| TMEM184A | -1.6 | -1.76 | -1.78 | -1.27 |
| IMPG1 | 0.56 | 0.64 | 0.39 | 0.65 |
| GEMIN2 | 0.01 | -0.28 | -0.08 | 0.4 |
| SERPINA9 | 2.03 | 2.17 | 1.91 | 1.99 |
| TMEM164 | -0.71 | -0.64 | -0.6 | -0.9 |
| OSBPL1A | 0.53 | 0.85 | 0.58 | 0.16 |

Just “z-score, replicate B”, for 4 of the entries above:
RLN3 = 1.4
TAFA2 = -0.19
SEPTIN7 = -0.05
CORIN = 1.19
